# According to ChEMBL document CHEMBL4011630 (J Med Chem, 2017):
# The chains behind the UniProt entries cited, without tags or fusion partners. Residues count along the entry.
# UniProt P04757, 26-499 limits assumed: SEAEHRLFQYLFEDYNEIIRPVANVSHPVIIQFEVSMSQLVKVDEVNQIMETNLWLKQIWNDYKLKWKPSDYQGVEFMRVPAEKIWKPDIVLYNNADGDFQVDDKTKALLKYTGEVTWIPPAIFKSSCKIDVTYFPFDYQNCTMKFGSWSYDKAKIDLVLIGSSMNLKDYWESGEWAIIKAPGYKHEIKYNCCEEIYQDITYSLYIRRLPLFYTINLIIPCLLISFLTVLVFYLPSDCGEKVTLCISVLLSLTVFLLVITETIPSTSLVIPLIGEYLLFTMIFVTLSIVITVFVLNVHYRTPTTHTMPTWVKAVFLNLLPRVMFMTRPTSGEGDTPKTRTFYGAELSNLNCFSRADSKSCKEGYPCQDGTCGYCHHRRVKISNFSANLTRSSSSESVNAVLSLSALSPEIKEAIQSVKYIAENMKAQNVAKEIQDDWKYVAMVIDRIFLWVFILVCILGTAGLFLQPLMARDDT
# UniProt P12392, 21-495 limits assumed: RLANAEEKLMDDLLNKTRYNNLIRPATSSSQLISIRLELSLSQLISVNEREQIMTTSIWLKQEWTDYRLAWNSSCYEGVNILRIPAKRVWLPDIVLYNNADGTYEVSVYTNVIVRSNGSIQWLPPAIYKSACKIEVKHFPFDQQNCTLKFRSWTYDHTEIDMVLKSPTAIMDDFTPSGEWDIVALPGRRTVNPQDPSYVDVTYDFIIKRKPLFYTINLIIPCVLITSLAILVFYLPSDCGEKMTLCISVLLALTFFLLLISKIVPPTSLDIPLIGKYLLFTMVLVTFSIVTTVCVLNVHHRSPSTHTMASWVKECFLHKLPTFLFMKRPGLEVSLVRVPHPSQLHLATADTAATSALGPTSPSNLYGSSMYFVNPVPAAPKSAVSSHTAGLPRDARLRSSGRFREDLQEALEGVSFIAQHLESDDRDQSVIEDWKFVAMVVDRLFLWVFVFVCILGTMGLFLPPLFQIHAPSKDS
# UniProt P43143, 31-493 limits assumed: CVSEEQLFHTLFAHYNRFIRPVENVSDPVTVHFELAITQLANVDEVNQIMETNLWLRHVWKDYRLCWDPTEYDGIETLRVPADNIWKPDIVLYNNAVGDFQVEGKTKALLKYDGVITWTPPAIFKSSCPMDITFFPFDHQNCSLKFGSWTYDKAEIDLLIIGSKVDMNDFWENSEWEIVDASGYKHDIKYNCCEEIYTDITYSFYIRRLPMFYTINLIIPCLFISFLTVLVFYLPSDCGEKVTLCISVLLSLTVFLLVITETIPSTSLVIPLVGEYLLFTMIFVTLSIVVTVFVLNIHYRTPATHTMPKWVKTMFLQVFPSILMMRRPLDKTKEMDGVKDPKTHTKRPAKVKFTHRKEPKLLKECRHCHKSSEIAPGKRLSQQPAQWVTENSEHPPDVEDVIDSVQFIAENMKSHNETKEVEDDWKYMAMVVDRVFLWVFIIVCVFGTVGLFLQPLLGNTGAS
# How the values were obtained:
# [1] = biological target: Nicotinic acetylcholine receptor alpha6/alpha3/beta4 (Rattus norvegicus, UniProt P04757+P12392+P43143); experiment: Antagonist activity at rat alpha6/alpha3beta4 nACHR expressed in xenopous laevis oocyte assessed as inhibition of ACh induced channel current after 5 mins at -70 mV holding potential by two electrode voltage clamp method
# [2] = biological target: Neuronal acetylcholine receptor; alpha3/beta4 (Rattus norvegicus, UniProt P04757+P12392); experiment: Antagonist activity at rat alpha3beta4 nACHR expressed in xenopous laevis oocyte assessed as inhibition of ACh induced channel current after 5 mins at -70 mV holding potential by two electrode voltage clamp method
smiles,measurement,setting,value
CC[C@H](C)[C@@H]1NC(=O)[C@@H]2CCCN2C(=O)[C@H](CO)NC(=O)[C@H](C)NC(=O)[C@H](C)NC(=O)[C@H](CO)NC(=O)[C@@H]2CSSC[C@H](NC(=O)CN)C(=O)N[C@@H](CSSC[C@@H](C(N)=O)NC1=O)C(=O)N[C@@H](CO)C(=O)N[C@@H](Cc1cnc[nH]1)C(=O)N1CCC[C@H]1C(=O)N[C@@H](C(C)C)C(=O)N2,IC50,[1],> 10 µM
same,IC50,[2],> 10 µM
